Measured values from several laboratories, pooled; numbers as filed in NIAID ChemDB.

Shared fields: host cell toxicity; cells: MT-4; measure: CC50

Blank or dashed fields: not listed here. CCn is the concentration with n% toxicity to the cells. Rows are shuffled and stem from different studies.

{"smiles": "COc1ccc(CCNC(=S)Nc2nccs2)cc1", "value": "68 µM"}
{"smiles": "CC(C)CN(C[C@@H](O)[C@H](Cc1ccccc1)NC(=O)O[C@H]1CO[C@H]2OCC[C@H]21)S(=O)(=O)c1ccc(-c2coc(-c3ccc(Br)cc3)n2)cc1", "method": "MTT", "value": ">32.4 µM"}
{"smiles": "COC(=O)[C@H](C)NP(=O)(OC[C@@H]1C=C[C@H](n2cc(CC(=O)NCCCCCCCCCCCCNC(=O)C(F)(F)F)c(=O)[nH]c2=O)O1)Oc1ccccc1", "method": "MTT", "value": ">10 µM"}
{"smiles": "C[C@H](NP(=O)(OC[C@H]1C=C[C@@H](n2ccc3c(N)ncnc32)C1)Oc1ccccc1)C(=O)OCc1ccccc1", "method": "trypan blue", "value": ">10 µM"}
{"smiles": "Fc1cccc(F)c1CCNC(=S)Nc1nccs1", "value": "33 µM"}
{"smiles": "COc1ncnc(NS(=O)(=O)c2ccc(N=C3C(=O)N(CN4CCCC4)c4ccccc43)cc2)c1OC", "value": "2.4 µg/mL"}
{"smiles": "COc1ccc(Br)cc1CCNC(=S)Nc1nccs1", "value": "94 µM"}
{"smiles": "COC(=O)Cn1c(-c2ccccc2F)nc2c(OC)cccc21", "value": ">60.6 µg/mL"}
{"smiles": "COc1ncnc(NS(=O)(=O)c2ccc(N=C3C(=O)N(CN4CCOCC4)c4ccccc43)cc2)c1OC", "value": "<1 µg/mL"}
{"smiles": "COc1cc2c(cc1Cc1cccc(Cl)c1F)c(=O)c(C(=O)O)cn2[C@H](CO)C(C)C", "method": "luminescence", "value": "4.197 µM"}
{"smiles": "CC(C)CN(C[C@@H](O)[C@H](Cc1ccccc1)NC(=O)O[C@H]1CO[C@H]2OCC[C@H]21)S(=O)(=O)c1ccc(-c2coc(-c3ccc([N+](=O)[O-])cc3)n2)cc1", "method": "MTT", "value": ">100 µM"}
{"smiles": "FC(F)(F)c1cccc(-n2nnnc2Nc2cccc(Br)c2)c1", "method": "MTT / absorbance", "value": "20 µM"}
{"smiles": "COc1cccc2c1nc(-c1ccccc1F)n2Cc1cccc(C)c1", "value": "8.5 µg/mL"}
{"smiles": "CC(C)CN(C[C@@H](O)[C@H](Cc1ccccc1)NC(=O)O[C@H]1CO[C@H]2OCC[C@H]21)S(=O)(=O)c1ccc(-c2coc(-c3cccs3)n2)cc1", "method": "MTT", "value": ">32.4 µM"}
{"smiles": "CCc1c(Cc2cc(C)cc(C)c2)n(COCC#Cc2cc3ccccc3c3ccccc23)c(=O)[nH]c1=O", "method": "MTT", "value": "80 µM"}
{"smiles": "COC(=O)[C@H](C)NP(=O)(OC[C@@H]1C=C[C@H](n2ccc3c(N)ncnc32)C1)Oc1ccccc1", "method": "trypan blue", "value": ">25 µM"}
{"smiles": "CCc1c(Cc2cc(C)cc(C)c2)n(COCC#Cc2ccccc2)c(=O)[nH]c1=O", "method": "MTT", "value": "30 µM"}
{"smiles": "COC(=O)Cc1cn([C@H]2C=C[C@@H](COP(=O)(N[C@@H](C)C(=O)OC)Oc3ccccc3)O2)c(=O)[nH]c1=O", "method": "MTT", "value": ">100 µM"}
{"smiles": "CN(CCc1ccccc1)C(=S)Nc1nccs1", "value": "29 µM"}
{"smiles": "COc1cccc2c1nc(-c1ccccc1F)n2CC=C(C)C", "value": "14.3 µg/mL"}
{"smiles": "COc1ccc(Nc2nnnn2-c2cccc(C(F)(F)F)c2)cc1", "method": "MTT / absorbance", "value": "72 µM"}
{"smiles": "COc1ccc(C(Cl)c2ccnc(Nc3ccc(C#N)cc3)n2)cc1", "method": "MTT", "value": "33.6 µM"}
{"smiles": "CCc1c(Cc2cc(C)cc(C)c2)n(COCC#CC#CCO[Si](c2ccccc2)(c2ccccc2)C(C)(C)C)c(=O)[nH]c1=O", "method": "MTT", "value": "76 µM"}
{"smiles": "Fc1ccc(Nc2nnnn2-c2cccc(C(F)(F)F)c2)cc1Cl", "method": "MTT / absorbance", "value": "41 µM"}
{"smiles": "CCc1c(Cc2cc(C)cc(C)c2)n(COCC#Cc2cccs2)c(=O)[nH]c1=O", "method": "MTT", "value": "38 µM"}
{"smiles": "COc1cccc2c1nc(-c1ccccc1F)n2Cc1cccc(F)c1F", "value": "15.7 µg/mL"}
{"smiles": "CCc1c(Cc2cc(C)cc(C)c2)n(COCC#CC#CCO)c(=O)[nH]c1=O", "method": "MTT", "value": "40 µM"}
{"smiles": "S=C(NCCc1ccccc1)Nc1ncccc1Br", "value": "297 µM"}
{"smiles": "COC(=O)[C@H](C)NP(=O)(OC[C@@H]1C=C[C@H](n2cc(CC(=O)NCCCCCCNC(=O)C(F)(F)F)c(=O)[nH]c2=O)O1)Oc1ccccc1", "method": "MTT", "value": ">10 µM"}
{"smiles": "N#Cc1ccc(-c2csc(N/N=C/c3ccccn3)n2)cc1", "method": "MTT", "value": "1.71 µM"}
{"smiles": "COC(=O)Cc1cn([C@@H]2C=C[C@H](COP(=O)(N[C@@H](C)C(=O)OC)Oc3ccccc3)O2)c(=O)[nH]c1=O", "method": "MTT", "value": ">100 µM"}
{"smiles": "COC(=O)[C@H](C)NP(=O)(OC[C@H]1C=C[C@@H](n2ccc3c(N)ncnc32)C1)Oc1ccccc1", "method": "trypan blue", "value": "26 µM"}
{"smiles": "CCc1c(Cc2cc(C)cc(C)c2)n(COCC#Cc2ccc(C=O)cc2)c(=O)[nH]c1=O", "method": "MTT", "value": "45 µM"}
{"smiles": "O=C(Cc1cn([C@H]2C=C[C@@H](CO)O2)c(=O)[nH]c1=O)NCCCCCCCCNC(=O)c1c2ccccc2nc2ccccc12", "method": "MTT", "value": ">10 µM"}
{"smiles": "COc1ncnc(NS(=O)(=O)c2ccc(N=C3C(=O)N(CN4CCCCC4)c4ccc(C)cc43)cc2)c1OC", "value": "10.7 µg/mL"}
{"smiles": "Cc1nc2ccccc2c(-c2cc(F)c3c(c2C)CCCO3)c1[C@H](OC(C)(C)C)C(=O)O", "method": "luminescence", "value": ">10 µM"}
{"smiles": "CC(C)CN(C[C@@H](O)[C@H](Cc1ccccc1)NC(=O)O[C@H]1CO[C@H]2OCC[C@H]21)S(=O)(=O)c1ccc(-c2coc(COCc3ccccc3)n2)cc1", "method": "MTT", "value": ">100 µM"}
{"smiles": "COc1cccc2c1nc(-c1ccccc1F)n2Cc1ccccc1F", "value": "20.6 µg/mL"}
{"smiles": "S=C(NCCc1ccccn1)Nc1nccs1", "value": "76 µM"}
{"smiles": "C=CCn1c(-c2ccccc2F)nc2c(OC)cccc21", "value": ">30.5 µg/mL"}
{"smiles": "COc1ncnc(NS(=O)(=O)c2ccc(N=C3C(=O)N(CN4CCNCC4)c4ccccc43)cc2)c1OC", "value": "1.8 µg/mL"}
{"smiles": "O=[N+]([O-])c1ccc(-c2csc(N/N=C/c3ccncc3)n2)cc1", "method": "MTT", "value": "75.6 µM"}
{"smiles": "O=c1[nH]c(=O)n([C@@H]2C=C[C@H](CO)O2)cc1CCO", "method": "MTT", "value": ">1 µM"}
{"smiles": "S=C(NCCc1cccnc1)Nc1nccs1", "value": "83 µM"}
{"smiles": "Nc1ncnc2c1ccn2[C@@H]1C=C[C@H](CO)C1", "method": "trypan blue", "value": ">500 µM"}
{"smiles": "Cc1cn([C@H]2C[C@H](N=[N+]=[N-])[C@@H](CO)O2)c(=O)[nH]c1=O", "method": "MTT", "value": ">25 µM"}
{"smiles": "COc1ncnc(NS(=O)(=O)c2ccc(N=C3C(=O)N(CN(C)C)c4ccccc43)cc2)c1OC", "value": "2.5 µg/mL"}
{"smiles": "Fc1ccc(CCNC(=S)Nc2nccs2)cc1", "value": "78 µM"}
{"smiles": "C/C(=N\\Nc1nc(-c2ccc(Cl)cc2)cs1)c1ccc2c(c1)OCO2", "method": "MTT", "value": "21.83 µM"}
{"smiles": "Fc1cccc(Nc2nnnn2-c2cccc(C(F)(F)F)c2)c1", "method": "MTT / absorbance", "value": "48 µM"}
{"smiles": "CCc1nc(NCN2C(=O)C(=Nc3ccc(S(=O)(=O)Nc4ncnc(OC)c4OC)cc3)c3ccccc32)nc(N)c1-c1ccc(Cl)cc1", "value": "2.1 µg/mL"}

A second listing of 5 rows from above:

| smiles | method | value |
|---|---|---|
| COc1cccc2c1nc(-c1ccccc1F)n2Cc1cccc(C)c1 |  | 8.5 µg/mL |
| COc1cccc2c1nc(-c1ccccc1F)n2CC=C(C)C |  | 14.3 µg/mL |
| Fc1cccc(Nc2nnnn2-c2cccc(C(F)(F)F)c2)c1 | MTT / absorbance | 48 µM |
| COC(=O)[C@H](C)NP(=O)(OC[C@@H]1C=C[C@H](n2cc(CC(=O)NCCCCCCNC(=O)C(F)(F)F)c(=O)[nH]c2=O)O1)Oc1ccccc1 | MTT | >10 µM |
| C=CCn1c(-c2ccccc2F)nc2c(OC)cccc21 |  | >30.5 µg/mL |